Laboratory results: PubChem BioAssay AID624099 (ICCB-Longwood, 2012)
The whole screen tested about 21,000 reagents; this is an unselected part. 497 of them (2.4%) were called active. 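Higher z means weaker E2 silencing; only reporter increases were scored, and knock-downs that hurt cell survival may mask genuine repressor factors.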

Aim: 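Knock-downs relieving repression by E2 of an HPV18 LCR luciferase reporter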 (primary screen)
Cells: human C33A cervical carcinoma cells (HPV-negative) stably expressing BPV1 E2 and an HPV18 LCR luciferase reporter
Reagents: siRNA pool against human genes, 40 nM
Duration: 72 h
Measured: 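HPV18 LCR reporter light per well, converted to plate-wise z-scores that exclude control wells, and averaged over triplicate plates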
Scale: mean z-score and z-score: higher = stronger reporter signal, weaker E2 silencing
Hit rule: 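Mean z ≥ 2 together with z ≥ 2 in two or more of the three replicates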

The first 2 entries as a preview:
PRY2 [SID134329813] → mean z-score = -0.5; z-score, replicate A = -0.48; z-score, replicate B = -1.04; z-score, replicate C = 0.01; activity call = inactive
GRB2 [SID134323025] → mean z-score = 0.11; z-score, replicate A = 0.25; z-score, replicate B = 0.07; z-score, replicate C = 0.02; activity call = inactive

The list itself, repeating the preview:
PRY2 [SID134329813] → mean z-score = -0.5; z-score, replicate A = -0.48; z-score, replicate B = -1.04; z-score, replicate C = 0.01; activity call = inactive
GRB2 [SID134323025] → mean z-score = 0.11; z-score, replicate A = 0.25; z-score, replicate B = 0.07; z-score, replicate C = 0.02; activity call = inactive
MUS81 [SID134320150] → mean z-score = 1.33; z-score, replicate A = 1.67; z-score, replicate B = 1.17; z-score, replicate C = 1.16; activity call = inactive
ZNF847P [SID134327049] → mean z-score = 0.51; z-score, replicate A = 0.78; z-score, replicate B = 0.49; z-score, replicate C = 0.26; activity call = inactive
CYP11B1 [SID134313497] → mean z-score = -0.79; z-score, replicate A = -0.44; z-score, replicate B = -1.05; z-score, replicate C = -0.9; activity call = inactive
ADCK1 [SID56478992] → mean z-score = 0.34; z-score, replicate A = 0.42; z-score, replicate B = -0.24; z-score, replicate C = 0.85; activity call = inactive
PHF6 [SID134318949] → mean z-score = 2.42; z-score, replicate A = 2.4; z-score, replicate B = 2.5; z-score, replicate C = 2.35; activity call = active
LOC402388 (retired record) [SID134329197] → mean z-score = -0.55; z-score, replicate A = -0.4; z-score, replicate B = -0.74; z-score, replicate C = -0.51; activity call = inactive
CDY2A [SID134314919] → mean z-score = 0.48; z-score, replicate A = 0.08; z-score, replicate B = 0.41; z-score, replicate C = 0.93; activity call = inactive
CD82 [SID134310147] → mean z-score = -0.38; z-score, replicate A = -0.4; z-score, replicate B = -0.51; z-score, replicate C = -0.22; activity call = inactive
STOML1 [SID134314115] → mean z-score = -1.14; z-score, replicate A = -1.13; z-score, replicate B = -1.26; z-score, replicate C = -1.02; activity call = inactive
NEK9 [SID56478903] → mean z-score = 0.31; z-score, replicate A = 0.25; z-score, replicate B = 0.31; z-score, replicate C = 0.35; activity call = inactive
CC2D2A [SID134325995] → mean z-score = 0.76; z-score, replicate A = 0.7; z-score, replicate B = 0.75; z-score, replicate C = 0.81; activity call = inactive
SYN3 [SID134315766] → mean z-score = -0.51; z-score, replicate A = -0.64; z-score, replicate B = -0.37; z-score, replicate C = -0.52; activity call = inactive
PLXNB2 [SID134329127] → mean z-score = -0.4; z-score, replicate A = -0.41; z-score, replicate B = -0.35; z-score, replicate C = -0.43; activity call = inactive
PCDH9 [SID134317428] → mean z-score = -0.32; z-score, replicate A = -0.07; z-score, replicate B = -0.24; z-score, replicate C = -0.65; activity call = inactive
PLG [SID134311425] → mean z-score = 1.19; z-score, replicate A = 1.14; z-score, replicate B = 1.25; z-score, replicate C = 1.17; activity call = inactive
LINC00301 [SID134321824] → mean z-score = -0.28; z-score, replicate A = -0.25; z-score, replicate B = -0.11; z-score, replicate C = -0.47; activity call = inactive
LOC391445 (retired record) [SID134327228] → mean z-score = 0.35; z-score, replicate A = 0.57; z-score, replicate B = 0.77; z-score, replicate C = -0.31; activity call = inactive
DCSTAMP [SID134313574] → mean z-score = 1.19; z-score, replicate A = 1; z-score, replicate B = 1.45; z-score, replicate C = 1.14; activity call = inactive
MED18 [SID134324278] → mean z-score = -0.3; z-score, replicate A = -0.28; z-score, replicate B = -0.49; z-score, replicate C = -0.13; activity call = inactive
